Only a part is listed here, and it is no random draw. Active and inactive are the calls of the source.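 Rule for the calls: active = mean inhibition across valid replicates above about 55% (limit read from the data); inconclusive = mean below that limit but half or more replicates reach it; inactive = mean below it, under half of replicates reach it.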
assay: inhibitors of intracellular T. cruzi growth, primary screen, luminescence, NIH3T3 host cells (AID 1885);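 note: signal also drops with host cell toxicity which is not excluded here; 0% = plate median of DMSO wells and 100% = zero luminescence signal; higher percent means less beta-gal luminescence so fewer parasites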; details: T. cruzi beta-gal in NIH3T3, luminescence, 90 h; stronger effect = higher value; concentration not given here
In short: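 Assay system: NIH/3T3 host cells with β-galactosidase reporter T. cruzi; input: 5,000 host fibroblasts per well; compound: single 50 nL compound addition per well in DMSO; timing: ≥90 h infection period, 3 h prior cell attachment; measured by: GalScreen β-gal luminescence, detergent lysis, 60 min; evaluation: percent inhibition of parasite-derived β-gal signal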

Row | Compound | inhibition
1 | O=C(NCC1(N2CCCCC2)CCCCC1)c1cccc(C(F)(F)F)c1 | inactive: 15.6%
2 | COc1ccc(NC2CCN(C(=O)OC(C)(C)C)CC2)cc1 | inactive: -9.19%
3 | CN1CCN(CCOC(=O)C(O)(c2ccccc2)c2ccccc2)CC1 | inactive: 2.44%
4 | O=C(NCC1(N2CCOCC2)CCCCC1)c1cc(=O)[nH]c2ccccc12 | inactive: -4.65%
5 | COc1cc(C(=O)NCC2(N3CCCCC3)CCCCC2)ccc1OC(F)F | inactive: 14.6%
6 | O=C(NCC1(N2CCCCC2)CCCCC1)c1ccc(OC(F)F)cc1 | inactive: -6.38%
7 | O=C(NCC1(N2CCCCC2)CCCCC1)c1cccc([N+](=O)[O-])c1 | inactive: 2%
8 | CCN1CCC(Nc2ccc(Cl)cc2)CC1 | inactive: 3.3%
9 | N#CC1(Nc2ccccc2)CCN(CCc2ccccc2)CC1 | inactive: -7.56%
10 | CN1CCC(Nc2cccc(F)c2)CC1 | active: 69.5%
11 | CCCOc1ccc(C(=O)NCC2(N(C)C)CCCCC2)cc1OC | inactive: -8.37%
12 | COc1ccc(CN(CCCl)CCCl)cc1Cl | inactive: -13.1%
13 | CN(C)c1cccc(C(=O)NCC2(N3CCCCC3)CCCCC2)c1 | inactive: -3.85%
14 | CC(C)c1ccc(NC2CCN(C(=O)OC(C)(C)C)CC2)cc1 | inactive: 10.6%
15 | COc1cc(OC)c(C(=O)NCC2(N(C)C)CCCCC2)cc1OC | inactive: -3.43%
16 | O=C(NCC1(N2CCOCC2)CCCCC1)c1cc2ccccc2o1 | inactive: 2.08%
17 | O=C(NCC1(N2CCCCC2)CCCCC1)c1ccc(Cl)nc1 | inactive: -7.27%
18 | Cc1cc(C)cc(N(C(=O)c2ccccc2)C2CCN(C(=O)OC(C)(C)C)CC2)c1 | inactive: 49.3%
19 | CCOC(=O)N1CCC(Nc2ccc(OC)cc2)CC1 | inactive: 22.9%
20 | N#CC1(Nc2ccccc2)CCN(Cc2ccccc2)CC1 | inactive: 11.2%

Row | Compound | inhibition
21 | O=C(OC1CN2CCC1CC2)C1c2ccccc2Oc2ccccc21 (centres undefined) | inactive: 14.4%
22 | O=C(NCC1(N2CCCCC2)CCCCC1)c1ccc(=O)[nH]c1 | inactive: -1.65%
23 | O=C(NCC1(N2CCCCC2)CCCCC1)c1cccs1 | inactive: 1.56%
24 | COc1ccc(C(=O)NCC2(N3CCCCC3)CCCCC2)cc1 | inactive: 12.2%
25 | CC(C)(C)OC(=O)N1CCC(N(C(=O)c2ccccc2)c2ccc(F)cc2)CC1 | inactive: 12.3%
26 | COc1ccc(C(=O)NCC2(N3CCCCC3)CCCCC2)c(OC)c1OC | inactive: 8.66%
27 | CSc1ccccc1C(=O)NCC1(N2CCCCC2)CCCCC1 | inactive: 30.5%
28 | CCOC(=O)N1CCC(Nc2cccc(C)c2)CC1 | inactive: -3.71%
29 | COc1cc(C(=O)NCC2(N(C)C)CCCCC2)ccc1OC(F)F | inactive: -12.4%
30 | Cc1ccc(OCC(C)C)c(CN(CCCl)CCCl)c1 | inactive: 11.4%
31 | CCOc1ccc(C)cc1CN(CCCl)CCCl | inactive: -2.31%
32 | O=C(NCC1(N2CCCCC2)CCCCC1)c1ccc(F)cc1 | inactive: 1.98%
33 | CCOC(=O)N1CCC(Nc2ccc(F)cc2)CC1 | inactive: 5.91%
34 | COc1ccc(NC2CCN(CCc3ccccc3)CC2)c(OC)c1 | inactive: -1.05%
35 | CCN1CCC(Nc2cccc(F)c2)CC1 | inactive: -1.53%
36 | CN(C)c1ccc(C(=O)NCC2(N3CCCCC3)CCCCC2)cc1 | inactive: 0.113%
37 | COc1cc(OC)cc(C(=O)NCC2(N3CCCCC3)CCCCC2)c1 | inactive: 9.8%
38 | Cc1ccc(C(=O)NCC2(N3CCCCC3)CCCCC2)o1 | inactive: 0.859%
39 | Fc1ccccc1NC1CCN(Cc2ccccc2)CC1 | inactive: -20.7%
40 | CCC(CO)(C(=O)OC1CN2CCC1CC2)c1ccccc1 (centres undefined) | inactive: 10.3%

Row | Compound | inhibition
41 | COc1cccc(C(=O)N(c2cc(C)cc(C)c2)C2CCN(C(=O)OC(C)(C)C)CC2)c1 | inactive: 25.7%
42 | COc1cc(OC)cc(C(=O)NCC2(N3CCOCC3)CCCCC2)c1 | inactive: 2.96%
43 | CCCOc1ccc(C)cc1CN(CCCl)CCCl | inactive: 11.7%
44 | CN1CCC(Nc2ccc(Cl)cc2)CC1 | inactive: 11.8%
45 | CCOc1ncccc1C(=O)NCC1(N2CCOCC2)CCCCC1 | inactive: -3.07%
46 | CN1CCC(Nc2ccc(F)c(Cl)c2)CC1 | inactive: 34.5%
47 | CCCOc1ccc(C(=O)NCC2(N(C)C)CCCCC2)cc1 | inactive: -2.73%
48 | CC(C)(C)OC(=O)N1CCC(Nc2ccccc2)CC1 | inactive: -15.6%
49 | O=C(O)C1(Nc2ccccc2)CCN(Cc2ccccc2)CC1 | inactive: 5.31%
50 | N/C(=N\O)c1c(N)no[n+]1[O-] | inactive: -6.93%
51 | CCOC(=O)N1CCC(Nc2ccc(C)cc2)CC1 | inactive: -6.51%
52 | CCc1cc(C(=O)NCC2(N3CCCCC3)CCCCC2)sc1C | inactive: -3.03%
53 | O=C(OC1CN2CCC1CC2)C1c2ccccc2C=Cc2ccccc21 (centres undefined) | inactive: 34.6%
54 | COc1ccc(C(=O)NCC2(N3CCOCC3)CCCCC2)cc1OC | inactive: -10.9%
55 | c1ccc(CN2CCC(Nc3ccccc3)CC2)cc1 | inactive: 7.08%
56 | CCCN1CCC(Nc2cc(OC)cc(OC)c2)CC1 | inactive: 15.2%
57 | CN(C)C1(CNC(=O)c2cccc(C#N)c2)CCCCC1 | inactive: -3.66%
58 | CC(C)(C)OC(=O)N1CCC(N(C(=O)c2ccccc2)c2ccc(Cl)cc2)CC1 | inactive: 17.9%
59 | N#Cc1ccc(C(=O)NCC2(N3CCCCC3)CCCCC2)cc1 | inactive: 4.68%
